Compound potency records, mixed from different reports. Data source: NIAID ChemDB in PubChem.

Shared fields: whole-cell or culture tests; agent: HIV-1

Blank or dashed fields: not listed here. ECn: concentration that inhibits the pathogen or its effect by n%. Neighbouring rows are from separate reports.

compound,strain,method,changes,cell line,read-out,result
O=S(=O)(O)OCC1OC2OC3C(COS(=O)(=O)O)OC(OC4C(COS(=O)(=O)O)OC(OC5C(COS(=O)(=O)O)OC(OC6C(COS(=O)(=O)O)OC(OC7C(COS(=O)(=O)O)OC(OC1C(OS(=O)(=O)O)C2OS(=O)(=O)O)C(OS(=O)(=O)O)C7OS(=O)(=O)O)C(OS(=O)(=O)O)C6OS(=O)(=O)O)C(OS(=O)(=O)O)C5OS(=O)(=O)O)C(OS(=O)(=O)O)C4OS(=O)(=O)O)C(OS(=O)(=O)O)C3OS(=O)(=O)O,,p24,,PBMC,EC50,<1 µg/mL
COc1ccc(S(=O)(=O)N(CC(C)C)C[C@@H](O)CCN(CC2CCCC2)S(=O)(=O)c2ccccn2)cc1,IIIB,p24,,CEM,EC50,<1 µM
Cc1cc(=O)[nH]c(N2C(=O)/C(=C\c3ccccc3)N=C2c2ccccc2)n1,,RT activity,,,EC50,47.75 µg/mL
COc1ccc(S(=O)(=O)N(CC(C)C)C[C@@H](O)CCN(CC2CCCC2)S(=O)(=O)c2ccccc2)cc1,IIIB,p24,,CEM,EC50,<1 µM
Cc1cc(C#N)cc(C)c1Oc1nc(NC2CCN(S(N)(=O)=O)CC2)nc2ccsc12,IIIB,MTT,,MT-4,EC50,0.24 µM
CC1=N/C(=C/c2ccccc2O)C(=O)N1c1nc(C)cc(=O)[nH]1,,RT activity,,,EC50,71.15 µg/mL
[O-][n+]1nc2c(Br)cnn2c2ccccc21,IIIB,cytopathic effect / MTT,,MT-4,EC50,>200 µM
O=C1NCCN(Cc2cccc(Cl)c2)c2c1sc1ccc([N+](=O)[O-])cc21,,p24,,OM-10.1,EC50,<0.08 µM
O=[N+]([O-])c1cnn2c1nnc1ccccc12,IIIB,cytopathic effect / MTT,,MT-4,EC50,>0.8 µM
Cc1cc(C#N)cc(C)c1Oc1nc(NC2CCN(S(=O)(=O)N3CCOCC3)CC2)nc2ccsc12,IIIB,MTT,,MT-4,EC50,0.22 µM
COC(=O)[C@H](C)NP(=O)(OC[C@@H]1C=C[C@H](n2cc(CC(=O)NCCCCCCCCNC(=O)C(F)(F)F)c(=O)[nH]c2=O)O1)Oc1ccccc1,LAI,RT activity,,CEM,EC50,>100 µM
COc1c(Cl)cc(C(=CCNC(=O)C[C@H]2CC[C@]3(C)C4CC[C@@]5(C)C(CC[C@@H]5CC(=O)NCC=C(c5cc(Cl)c(OC)c(C(=O)O)c5)c5cc(Cl)c(OC)c(C(=O)O)c5)C4CC[C@H]3C2)c2cc(Cl)c(OC)c(C(=O)O)c2)cc1C(=O)O,IIIB,cytopathic effect / MTT,,MT-4,EC50,48 µM
Cc1cc(C#N)cc(C)c1Oc1nc(NC2CCN(S(=O)(=O)c3ccc(-c4ccccc4)cc3)CC2)nc2ccsc12,IIIB,MTT,,MT-4,EC50,1.1 µM
C[C@@H]1CO[C@]2(CC[C@H](C)N3C[C@H]2n2cc(C(=O)NCc4c(F)cc(F)cc4F)c(=O)c(O)c2C3=O)O1,IIIB,luminescence,,MT-4,EC50,0.0007 µM
O=c1[nH]c(=O)n(COCCO)c2c1CCC2,BRU,cytopathic effect / MTT,,CEM-C113 + CEM/C113,EC50,>30 µg/mL
Cc1ccc(NC(=O)c2cc(S(=O)(=O)N3CCNNC3=O)c(S)cc2Cl)cc1,,cytopathic effect / XTT,,CEM,EC50,49.9 µM
COc1ccc2sc3c(c2c1)N(Cc1cccc(Cl)c1)CCNC3=O,,p24,,OM-10.1,EC50,<0.04 µM
[O-][n+]1nc2c(Br)cnn2c2cc(Cl)ccc21,IIIB,cytopathic effect / MTT,,MT-4,EC50,>200 µM
C=C(C)CN1CCN(Cc2ccccc2)C(=O)c2sc3ccc(OC)cc3c21,,p24,,OM-10.1,EC50,0.9 µM
CN(C)c1ncnc2c1ncn2[C@H]1CC[C@@H](CO)O1,RF,cytopathic effect / MTT / p24,,C8166,EC90,20 µM
C[C@H]1CC[C@]2(CC(n3nccn3)=NO2)[C@H]2CN1C(=O)c1c(O)c(=O)c(C(=O)NCc3c(F)cc(F)cc3F)cn12,IIIB,entry / luminescence,,MT-4,EC50,0.001 µM
Nc1ncnc2c1nc(Br)n2[C@H]1CC[C@@H](CO)C1,IIIB,cytopathic effect,,MT-4,EC50,>10 µM
Cc1cn(CC(=O)Nc2ccc(Br)cn2)c(=O)[nH]c1=O,VB59,luciferase,,TZM-bl,EC50,43.57 µM
O=c1[nH]c(=S)c2c(n1COCc1ccccc1)CCCC2,BRU,cytopathic effect / MTT,,CEM-C113 + CEM/C113,EC50,>30 µg/mL
Cc1cc(/C=C/C#N)cc(C)c1Oc1ccnc(Nc2ccc(CN3CCN(S(=O)(=O)N(C)C)CC3)cc2)n1,,MTT,L100I,MT-4,EC50,0.029 µM
CCCCCCC(C)[C@H]1CCC2C3CC[C@H]4C[C@@H](CCC=C(c5cc(Cl)c(O)c(C(=O)O)c5)c5cc(Cl)c(O)c(C(=O)O)c5)CC[C@]4(C)C3CC[C@@]21C,IIIB,cytopathic effect / MTT,,MT-4,EC50,3 µM
OC[C@H]1O[C@@H](c2cc(Cl)c(F)cc2F)C[C@@H]1O,IIIB,syncytia,,CEM,EC50,>250 µM
COc1c(Cl)cc(C(=CCCCCN[C@H]2CC[C@]3(C)C4CC[C@@]5(C)C(CC[C@@H]5C(C)CCCC(C)C)C4CC[C@H]3C2)c2cc(Cl)c(OC)c(C(=O)O)c2)cc1C(=O)O,RF,cytopathic effect / MTT,,CEM + CEM-SS,EC50,>316 µM
COc1ccc2oc3c(c2c1)N(CC(C)C)CCN(C)C3=O,,p24,,OM-10.1,EC50,0.09 µM
O=[N+]([O-])c1cnn2c1n[n+]([O-])c1ccccc12,IIIB,cytopathic effect / MTT,,MT-4,EC50,>1.8 µM
CSS[C@H]1C[C@H](n2cc(C)c(=O)[nH]c2=O)O[C@@H]1CO,IIIB,syncytia,,CEM,EC50,10 µM
O=c1[nH]c(=S)c2c(n1COCc1ccccc1)CCC2,BRU,cytopathic effect / MTT,,CEM-C113 + CEM/C113,EC50,>30 µg/mL
COc1ccc(S(=O)(=O)N(CC[C@H](O)CN(CC(C)C)S(=O)(=O)c2ccc(OC)cc2)CC(C)C)cc1,IIIB,p24,,CEM,EC90,0.1 µM
C[C@H](Cn1cnc2c(N)ncnc21)OCP(=O)(O)O,IIIB,syncytia,,CEM,EC50,4.2 µM
[2H]C([2H])([15NH]C(=O)c1cn2c(c(O)c1=O)C(=O)N1C[C@@H]2[C@]2(CC[C@@H]1C)CC(C)=NO2)c1ccc(F)cc1F,IIIB,luminescence,,MT-4,EC50,0.0018 µM
Cc1cc(C#N)cc(C)c1Oc1nc(NC2CCN(S(=O)(=O)c3ccccc3)CC2)nc2ccsc12,IIIB,MTT,,MT-4,EC50,0.35 µM
O=C(NCCCc1cn([C@H]2C=C[C@@H](CO)O2)c(=O)[nH]c1=O)C(F)(F)F,LAI,RT activity,,CEM,EC50,>100 µM
CN(C)C(=O)c1nc2c(N)ncnc2n1[C@H]1CC[C@@H](CO)C1,IIIB,cytopathic effect,,MT-4,EC50,>10 µM
O=C(O)c1cc(NS(=O)(=O)c2ccc(-c3ccc(S(=O)(=O)Nc4cc(C(=O)O)c(O)c(S(=O)(=O)O)c4)cc3)cc2)cc(S(=O)(=O)O)c1O,IIIB,syncytia,,MT-4,EC50,<99 µM
Cc1cc(C#N)cc(C)c1Oc1nc(Nc2ccc(NS(C)(=O)=O)cc2)nc2ccsc12,IIIB,MTT,,MT-4,EC50,1.77 µM
COC(=O)[C@H](C)NP(=O)(OC[C@@H]1C=C[C@H](n2cc(CC(=O)NCCCCCCCCCCCCNC(=O)C(F)(F)F)c(=O)[nH]c2=O)O1)Oc1ccccc1,LAI,RT activity,,CEM,EC50,>10 µM
O=C(Cn1cnc2c([N+](=O)[O-])cccc21)Nc1ccccn1,IIIB,luciferase,,TZM-bl,EC50,6.7 µM
CC(C)(C)NC(=O)c1ccccc1C(=O)C(=O)C(=O)N(CC1CCCC1)S(=O)(=O)c1ccccc1,IIIB,p24,,CEM,EC50,<1 µM
Nc1ncnc2c1nc(-c1ccccc1)n2[C@H]1CC[C@@H](CO)C1,IIIB,cytopathic effect,,MT-4,EC50,>10 µM
C=C1CN(S(=O)(=O)c2ccc(C)cc2)CCCN(Cc2ccccc2)CCCN(S(=O)(=O)c2ccc(C)cc2)C1,AZT-resistant,,,MT-4,EC50,2 µM
FC(F)(F)c1ccc(C2SCc3nc4ccccc4n32)cc1,RF,cytopathic effect / MTT,,CEM,EC50,>100 µM
CONc1c2cc(Cl)ccc2nc(=S)c2ccccc12,LAV,syncytia,,H9,EC50,0.38 µM
[O-][n+]1nc2ccnn2c2ccccc21,IIIB,cytopathic effect / MTT,,MT-4,EC50,>200 µM
Cc1cc(S(=O)(=O)N2CCNNC2=O)c(S)cc1Cl.O,,cytopathic effect / XTT,,CEM,EC50,9.99 µM
COc1ccc(S(=O)(=O)N(Cc2ccccc2)CC(O)CN(CC2CCCC2)S(=O)(=O)c2ccccc2)cc1,IIIB,p24,,CEM,EC90,1 µM
COC(=O)[C@H](C)NP(=O)(OC[C@H]1C=C[C@@H](n2cc(CC(=O)NCCCCCCNC(=O)C(F)(F)F)c(=O)[nH]c2=O)O1)Oc1ccccc1,LAI,RT activity,,CEM,EC50,>100 µM
CCOC(=O)c1cnn2c1n[n+]([O-])c1ccccc12,IIIB,cytopathic effect / MTT,,MT-4,EC50,>143 µM
O=c1[nH]c(=O)n([C@H]2C=C[C@@H](CO)O2)cc1CCO,LAI,RT activity,,CEM,EC50,>100 µM
C[C@H]1CC[C@]2(CC(=O)N(CC(C)(C)C)O2)[C@H]2CN1C(=O)c1c(O)c(=O)c(C(=O)NCc3c(F)cc(F)cc3F)cn12,IIIB,luminescence,,MT-4,EC50,0.0058 µM
O=C(Cn1ccc(=O)[nH]c1=O)Nc1ccccn1,ADA5,luciferase,,TZM-bl,EC50,178 µM
O=C(Cc1cn([C@H]2C=C[C@@H](CO)O2)c(=O)[nH]c1=O)NCCCCCCCCCCCCNC(=O)c1c2ccccc2nc2ccccc12,LAI,RT activity,,CEM,EC50,>10 µM
Cc1cc(=O)[nH]c(N2C(=O)/C(=C\c3ccc(N(C)C)cc3)N=C2c2ccccc2)n1,,RT activity,,,EC50,49.45 µg/mL
CC(CNC(=S)Nc1nccs1)c1ccccc1,IIIB,cytopathic effect / XTT,,MT-4,EC50,>10 µM
N#Cc1cc(Cl)cc(Oc2c(Br)ccc(CC(=O)Nc3ccc(S(N)(=O)=O)cc3Cl)c2F)c1,,,Y181I/M230L,MT-4,EC50,0.012 µM
O=c1[nH]c2c(c(=O)[nH]1)CCCC2,BRU,cytopathic effect / MTT,,CEM-C113 + CEM/C113,EC50,>30 µg/mL
Cc1cn([C@H]2C[C@H](O)[C@@H](COC(=O)CCCCCCCCCCCBr)O2)c(=O)[nH]c1=O,,cytopathic effect / XTT,,CEM,EC50,25.7 µM
COC(=O)Cc1cn([C@@H]2C=C[C@H](CO)O2)c(=O)[nH]c1=O,LAI,RT activity,,CEM,EC50,>100 µM
CC(C)c1c(Cc2ccccc2)n(COCc2ccc(/C(O)=C/C(=O)C(=O)O)cc2)c(=O)[nH]c1=O,IIIB,cytopathic effect,,CEM,EC50,0.033 µM
Cc1cc(Cl)nc(N2C(=O)/C(=C\c3ccco3)N=C2c2ccccc2)n1,,RT activity,,,EC50,53.03 µg/mL
COc1ccc2sc3c(c2c1)N(CC(C)C)CCn1cnnc1-3,,p24,,OM-10.1,EC50,0.02 µM
COc1c(Cl)cc(C(=CCCNC(=O)C[C@H]2CC[C@]3(C)C4CC[C@@]5(C)C(CC[C@@H]5CC(=O)NCCC=C(c5cc(Cl)c(OC)c(C(=O)O)c5)c5cc(Cl)c(OC)c(C(=O)O)c5)C4CC[C@H]3C2)c2cc(Cl)c(OC)c(C(=O)O)c2)cc1C(=O)O,RF,cytopathic effect / MTT,,MT-4,EC50,38 µM
COC(=O)N[C@H](C(=O)N[C@@H](Cc1ccccc1)[C@@H](O)CN(Cc1ccc(-c2ccccn2)cc1)NC(=O)[C@@H](NC(=O)OC)C(C)(C)C)C(C)(C)C,IIIB,XTT,,CEM,EC50,<4 µM
CC1=CC=CC2C1=NC(c1cccnc1)N2Cc1c(F)cccc1F,,,,CEM,EC50,31.6 µM
Nc1ncnc2c1nc(Cl)n2[C@H]1CC[C@@H](CO)C1,IIIB,cytopathic effect,,MT-4,EC50,>10 µM
CCOC(=O)c1cnn2c1n[n+]([O-])c1cc([N+](=O)[O-])ccc12,IIIB,cytopathic effect / MTT,,MT-4,EC50,>1.3 µM
C[C@H]1CC[C@]2(CC(=O)N([C@@H](C)c3ccccc3)O2)[C@H]2CN1C(=O)c1c(O)c(=O)c(C(=O)NCc3c(F)cc(F)cc3F)cn12,IIIB,luminescence,,MT-4,EC50,0.0008 µM
CCN(CC)c1ncnc2c1ncn2[C@H]1CC[C@@H](CO)O1,GB8,p24,,JM,EC90,>200 µM
COC(=O)Cc1cn([C@@H]2C=C[C@H](COP(=O)(N[C@@H](C)C(=O)OC)Oc3ccccc3)O2)c(=O)[nH]c1=O,LAI,RT activity,,CEM,EC50,85 µM
[N-]=[N+]=NCCOCn1c2c(c(=O)[nH]c1=O)CCCC2,BRU,cytopathic effect / MTT,,CEM-C113 + CEM/C113,EC50,>30 µg/mL
COc1ccc(S(=O)(=O)N(CC(C)C)C[C@@H](O)CCN(CCc2ccccc2)C(=O)O[C@H]2COC3OCCC32)cc1,IIIB,p24,,CEM,EC50,<1 µM
O=c1[nH]c(=O)n([C@@H]2C=C[C@H](CO)O2)cc1CCO,LAI,RT activity,,CEM,EC50,41 µM